# Data from US10258597B2, “Method for treating a glycoprotein-related disease” (dated 2019).
# Columns and labels:
# Feline coronavirus = test: Clinical experiments on feline coronavirus (PCR virus detection); conditions: Cat 150430, Blood, total days 8
# Felid herpesvirus 1 = test: Clinical experiments on felid herpesvirus 1 (PCR virus detection)
# [1] = test system: 7 virus species belonged to 5 families; test: Clinical experiments on virus infected dogs and cats, overall summary; conditions: Tables 2-1 to 2-7
# Feline leukemia virus = test: Clinical experiments on Feline leukemia virus (PCR virus detection); conditions: Cat 130730, Blood, total days 9, company V
# [2] = test system: Feline immunodeficiency virus; test: Clinical experiments on feline immunodeficiency virus (PCR virus detection); conditions: Blood, company V
# Canine distemper virus = test: Clinical experiments on canine distemper virus (PCR virus detection)
# Canine parvovirus = test: Clinical experiments on canine parvovirus (PCR virus detection)
# [3] = test system: Feline panleukopenia virus; test: Clinical experiments on feline panleukopenia virus (PCR virus detection)
substance,measurement,setting,value
monosodium methanearsonate,Results (virus amount),Feline coronavirus; Day 0,0.00417338 ng/µL
same,Results (virus amount),Feline coronavirus; Day 8,•
same,Results (virus amount),"Felid herpesvirus 1; Cat 150417, Blood, Day 0, total days 12",0.01528214 ng/µL
same,Results (virus amount),"Felid herpesvirus 1; Cat 150417, Blood, Day 4, total days 12",2.14e-06 ng/µL
same,Results (virus amount),"Felid herpesvirus 1; Cat 150417, Blood, Day 13, total days 12",•
same,Results (virus amount),"Felid herpesvirus 1; Cat 150502, Nasal secretion (not quantitative detection), Day 0, total days 10",1.518e-05 ng/µL
same,Results (virus amount),"Felid herpesvirus 1; Cat 150502, Nasal secretion (not quantitative detection), Day 10, total days 10",3.75e-07 ng/µL
same,Results (virus amount),"Felid herpesvirus 1; Cat 150507, Blood, Day 7, total days 9",•
same,Results (virus amount),"Felid herpesvirus 1; Cat 150516, Blood, Day 0, total days 8",0.00022825 ng/µL
same,Results (virus amount),"Felid herpesvirus 1; Cat 150516, Blood, Day 15, total days 8",6.971e-06 ng/µL
same,administered period (average),[1],9 days
same,Results (virus detection),Feline leukemia virus; Day 0,+ (*^a)
same,Results (virus detection),Feline leukemia virus; Day 9,− (*^b)
same,Results (virus detection),"[2]; Cat 130730, Day 0, total days 9",+ (*^a)
same,Results (virus detection),"[2]; Cat 130730, Day 9, total days 9",− (*^b)
same,Results (virus detection),"[2]; Cat 130805, Day 0, total days 14",+ (*^a)
same,Results (virus detection),"[2]; Cat 130805, Day 14, total days 14",− (*^b)
same,Results (virus amount),"Canine distemper virus; Dog 140617, Blood, Day 0, total days 3",2.8e-07 ng/µL
same,Results (virus amount),"Canine distemper virus; Dog 140617, Blood, Day 3, total days 3",•
same,Results (virus amount),"Canine distemper virus; Dog 140701, Nasal secretion (not quantitative detection), Day 0, total days 14",1.341e-05 ng/µL
same,Results (virus amount),"Canine distemper virus; Dog 140701, Nasal secretion (not quantitative detection), Day 4, total days 14",3.34e-06 ng/µL
same,Results (virus amount),"Canine distemper virus; Dog 140701, Nasal secretion (not quantitative detection), Day 10, total days 14",1.16e-06 ng/µL
same,Results (virus amount),"Canine distemper virus; Dog 140701, Nasal secretion, Day 14, total days 14",•
same,Results (virus amount),"Canine distemper virus; Dog 140703, Nasal secretion (not quantitative detection), Day 0, total days 12",2.4e-07 ng/µL
same,Results (virus amount),"Canine distemper virus; Dog 140703, Nasal secretion (not quantitative detection), Day 3, total days 12",3.12e-06 ng/µL
same,Results (virus amount),"Canine distemper virus; Dog 140703, Nasal secretion (not quantitative detection), Day 10, total days 12",6.1e-07 ng/µL
same,Results (virus amount),"Canine distemper virus; Dog 140703, Nasal secretion, Day 12, total days 12",•
same,Results (virus amount),"Canine distemper virus; Dog 140808-1, Blood, Day 0, total days 12",3.5e-06 ng/µL
same,Results (virus amount),"Canine distemper virus; Dog 140808-1, Blood, Day 8, total days 12",2.64e-06 ng/µL
same,Results (virus amount),"Canine distemper virus; Dog 140808-1, Blood, Day 12, total days 12",•
same,Results (virus amount),"Canine distemper virus; Dog 140808, Blood, Day 0, total days 11",3.1e-06 ng/µL
same,Results (virus amount),"Canine distemper virus; Dog 140808, Blood, Day 7, total days 11",3.5e-06 ng/µL
same,Results (virus amount),"Canine distemper virus; Dog 140808, Blood, Day 11, total days 11",•
same,Results (virus amount),"Canine parvovirus; Dog 140413, Blood, Day 0, total days 10",0.00105804 ng/µL
same,Results (virus amount),"Canine parvovirus; Dog 140413, Blood, Day 3, total days 10",3.56e-05 ng/µL
same,Results (virus amount),"Canine parvovirus; Dog 140413, Blood, Day 9, total days 10",5.314e-05 ng/µL
same,Results (virus amount),"Canine parvovirus; Dog 140413, Blood, Day 11, total days 10",1.837e-06 ng/µL
same,Results (virus amount),"Canine parvovirus; Dog 140529, Feces (not quantitative detection), Day 0, total days 4",0.00932918 ng/µL
same,Results (virus amount),"Canine parvovirus; Dog 140529, Feces (not quantitative detection), Day 4, total days 4",0.00028836 ng/µL
same,Results (virus amount),"Canine parvovirus; Dog 150125, Blood, Day 0, total days 7",0.00046322 ng/µL
same,Results (virus amount),"Canine parvovirus; Dog 150125, Blood, Day 3, total days 7",3.45e-06 ng/µL
same,Results (virus amount),"Canine parvovirus; Dog 150125, Blood, Day 5, total days 7",7.5e-07 ng/µL
same,Results (virus amount),"Canine parvovirus; Dog 150125, Blood, Day 6, total days 7",4e-07 ng/µL
same,Results (virus amount),"Canine parvovirus; Dog 150125, Blood, Day 11, total days 7",•
same,Results (virus amount),"Canine parvovirus; Dog 150708, Blood, Day 0, total days 10",0.004072424 ng/µL
same,Results (virus amount),"Canine parvovirus; Dog 150708, Blood, Day 8, total days 10",0.00026969 ng/µL
same,Results (virus amount),"Canine parvovirus; Dog 150708, Blood, Day 15, total days 10",1.856e-05 ng/µL
same,Results (virus amount),"Canine parvovirus; Dog 150716, Blood, Day 0, total days 10",0.00458306 ng/µL
same,Results (virus amount),"Canine parvovirus; Dog 150716, Feces (*d), Day 10, total days 10",2.47e-05 ng/µL
same,Results (virus amount),"[3]; Cat 140512, Blood, Day 0, total days 8",1.4367e-05 ng/µL
same,Results (virus amount),"[3]; Cat 140512, Blood, Day 7, total days 8",•
same,Results (virus amount),"[3]; Cat 141128, Blood, Day 0, total days 10",0.00130942 ng/µL
same,Results (virus amount),"[3]; Cat 141128, Blood, Day 6, total days 10",1.088e-05 ng/µL
same,Results (virus amount),"[3]; Cat 141128, Blood, Day 7, total days 10",2.5e-07 ng/µL
same,Results (virus amount),"[3]; Cat 141128, Blood, Day 8, total days 10",7.9e-07 ng/µL
same,Results (virus amount),"[3]; Cat 150323, Feces (not quantitative detection), Day 0, total days 12",0.04240717 ng/µL
same,Results (virus amount),"[3]; Cat 150323, Feces (not quantitative detection), Day 6, total days 12",0.22391915 ng/µL
same,Results (virus amount),"[3]; Cat 150323, Feces (not quantitative detection), Day 15, total days 12",7.11e-06 ng/µL
same,Results (virus amount),"[3]; Cat 150323, Feces (not quantitative detection), Day 21, total days 12",1.4e-07 ng/µL
same,Results (virus amount),"[3]; Cat 150529, Blood, Day 0, total days 12",1.217e-05 ng/µL
same,Results (virus amount),"[3]; Cat 150529, Blood, Day 15, total days 12",•
